Human monoclonal antibodies against the spike receptor-binding domain (heavy:light variable regions). IC50 against pseudoviruses bearing the spike of naturally observed variants; lower = stronger; >10 µg/ml means not reached at the top dose. No active / inactive call. The stated detection limit is 0.0005 µg/ml; values near or below 0.001 µg/ml lie at the floor of the assay.
Legend:
Experiment in all cases: pseudovirus neutralization IC50; higher = weaker neutralization
[1] = molecular target: SARS-CoV-2 Omicron BA.1 spike pseudovirus
Description: (§1)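 Single-round VSV luciferase pseudovirus mixed with antibody dilutions for 1 h and put on Huh-7 cells for about a day; IC50 from the dose curve.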

[2] = molecular target: SARS-CoV-2 Omicron BA.2 spike pseudovirus
Description: as §1

[3] = molecular target: SARS-CoV-2 Omicron BA.2.75 spike pseudovirus
Description: as §1

[4] = molecular target: SARS-CoV-2 Omicron BA.2.75.2 spike pseudovirus
Description: as §1

[5] = molecular target: SARS-CoV-2 Omicron BA.5 spike pseudovirus
Description: as §1

[6] = molecular target: SARS-CoV-2 Omicron BM.1.1.1 spike pseudovirus
Description: as §1

[7] = molecular target: SARS-CoV-2 Omicron BQ.1.1 spike pseudovirus
Description: as §1

[8] = molecular target: SARS-CoV-2 Omicron BR.2 spike pseudovirus
Description: as §1

[9] = molecular target: SARS-CoV-2 Omicron CA.1 spike pseudovirus
Description: as §1

[10] = molecular target: SARS-CoV-2 Omicron XBB spike pseudovirus
Description: as §1

[11] = molecular target: SARS-CoV-2 early D614G spike pseudovirus
Description: as §1

Binder	pseudovirus neutralization IC50 [1] [µg/mL]	pseudovirus neutralization IC50 [2] [µg/mL]	pseudovirus neutralization IC50 [3] [µg/mL]	pseudovirus neutralization IC50 [4] [µg/mL]	pseudovirus neutralization IC50 [5] [µg/mL]	pseudovirus neutralization IC50 [6] [µg/mL]	pseudovirus neutralization IC50 [7] [µg/mL]	pseudovirus neutralization IC50 [8] [µg/mL]	pseudovirus neutralization IC50 [9] [µg/mL]	pseudovirus neutralization IC50 [10] [µg/mL]	pseudovirus neutralization IC50 [11] [µg/mL]
BD56-1375 (protein) chain 1: EVQLVESGGGLVQPGRSLRLSCAVSGFTFDDYAMHWVRQAPGKGLEWVSGISWNGDKTGYADSVKGRFTISRDNAKNSLYLQMNSLRPEDTAFYYCAKDSGVGGGDRPYFYYGMDVWGQGTTVTVSS chain 2: QSALTQPRSVSGSPGQSVTISCTGTSSDVGGYNYVSWYQQHPGKAPKLMIYDVSKRPSGVPDRFSGSKSGNTASLTISGLQAEDEADYYCCSYAGSYTWVFGGGTKLTVL	> 10	0.421	> 10	> 10	> 10	> 10	> 10	> 10	> 10	> 10	> 10
BD56-1383 (protein) chain 1: QVQLVQSGAEVEKPGASVKVSCKASGYTFTSYYMHWVRQAPGQGLEWMGIINPSGGSTNYAQKFQGRVTMTRDTSTSTVYMELSSLRSEDTAVYYCARDSAEVRDYFDYWGQGTLVTVSS chain 2: QSALTQPRSVSGSPGQSVTISCTGTSSDVGGYNYVSWYQQHPGKAPKLMIFDVSKRPSGVPDRFSGSKSGNTASLTISGLQAEDEADYYCCSYAGSYTWVFGGGTKLTVL	1.4	0.261	0.298	> 10	> 10	> 10	> 10	> 10	> 10	> 10	> 10
BD58-0563 (protein) chain 1: EVQLLESGGGRAQPGRSLRLSCAASGFTFGSYVMNWVRQAPGKGLEWVSTVSGTTGNTYYADSVKGRFTISRDNSKNTLYLQMNRLRAEDTAVYYCVTERRDFSSPYPSYFFDYWGQGTLVTVSS chain 2: SSELTQDSAVSVALGQTVRITCQGDSLRSYYASWYQQKPGQAPMLVLYGNNNRPSGIPDRFSGSSSGRTASLTITGAQAEDEADYYCNSRDSSGNHRVFGGGTKLTVL	> 10	> 10	> 10	> 10	> 10	> 10	> 10	> 10	> 10	> 10	> 10
BD58-0493 (protein) chain 1: QVTLRESGPALVKPTQTLTLTCTFSGFSLSTAGMCVTWIRQPPGKALEWLALISWDDDKYYSTSLKTWLSISKDTSKNQVVLTLPNMDPVDTATYYCARINGQITHAFDIWGQGTMVTVSS chain 2: EIVMMQSPATLSLSPGERATLSCRASQSVSSNLAWYQQKPGQAPRLLIYAASTRATGIPARFSGSGSGTEFTLTISSLQSEDFAVYYCQQYNNWPRYTFGQGTKLEIK	> 10	> 10	> 10	> 10	> 10	> 10	> 10	> 10	> 10	> 10	> 10
BD58-0560 (protein) chain 1: EVQLVESGGGVVQPGGSLRLSCAASGFTFDDYVLHWVRQAPGKGLEWVSLISGDGVTTYYADSVKGRFTISRDNSKNSLYLQMNSLRSEDTALYYCANYYYGMDVWGQGTTVTVSS chain 2: SYELTQPPSVSVSPGQTARITCSGDALPKKYAYWYQQKPGQAPVLVIYKDTERPSGIPERFSASSSGTTVTLTISGVQAEDEADYYCQSTDSSGSFLFGPGTKVTVL	> 10	> 10	> 10	> 10	> 10	> 10	> 10	> 10	> 10	> 10	> 10
BD56-1378 (protein) chain 1: QVQLIQSGTEVKRPGASVKVSCKVSGYFLSELSMHWVRQAPGKGLEWMGGFDLRDGETIFAQKFQGRVTMSEDTLTDTAYMEVRSLRSEDTAVYYCATGGSESFDTWGQGTQVTVSS chain 2: DIQLTQSPSFLSASVGDRVTITCRASQGISSYLAWYQQKPGKAPKLLIYTASTLESGVPSRFSGSGSETEFTLTISSLQPEDFATYFCQHLHNFPFTFGPGTTVDIK	> 10	0.0166	0.0328	0.142	0.0178	0.135	0.0252	0.0196	0.12	0.103	> 10
BD56-1381 (protein) chain 1: EGQLVESGGGLVQPGGSLRLSCAASGFPVSSNYMSWVRQTPGKGLEWVSVINRSGNTYYADYVKGRFTISRDNSKITLYLQMNSLRGEDTAVYYCASHSGDTGIIDYWGQGTLVTVSS chain 2: DIQMTQFPSSLSASVGDRVTITCQASQDISNYLNWYQQKPGKAPKLLIYDASNLETGVPSRFSGSGSGTDFTFTISSLQPEDIATYYCQQYDNFPAYTFAQGTKLEIK	> 10	0.193	> 10	> 10	0.187	> 10	> 10	> 10	> 10	> 10	> 10
BD58-0446 (protein) chain 1: QITLKESGPTLVKPTQTLTLTCTFSGFSLSTSGVGVGWIRQPPGKALEWLALIYWDDDNRYSPSLKSRLAITKDTSKNQVVLILTNMDPVDTATYYCAHRISGKYFKGFDYWGQGTLVTVSS chain 2: QSVLTQPPSVSAAPGQKVTISCSGSSSNIGNNYVSWYQQLPGTAPKLLIYDNNKRPSGIPDRFSGSKSGTSATLGITGLQTGDEADYYCGAWDTSLRAVLFGGGTKLTVL	> 10	> 10	> 10	> 10	> 10	> 10	> 10	> 10	> 10	> 10	> 10
BD58-0477 (protein) chain 1: QVQLVESGGGVVQPGRSLRLSCAASGFTFSSSGMHWVRQAPGKGLEWVAVIWYEGTNKYYADSVKGRFTISRDNSKNTLYLQMNSLRAEDTAVYYCAKESGYSFGWGFNWFDPWGQGTLVTVSS chain 2: QSVLTQPPSVSGAPGQRVTISCTGSSSNIGAGYDVHWYQQLPGTAPKLLIYGNSNRPSGVPARFSGSKSGTSASLAITGLQAEDEADYYCQSYDSRLGGLLFGGGTKLTVL	> 10	> 10	> 10	> 10	> 10	> 10	> 10	> 10	> 10	> 10	> 10
BD56-1379 (protein) chain 1: EVQLVESGGGLVQPGRSLRLSCAASGFTFDNYAMHWVRQAPGKGLEWVSGISWNNDNIGYADSVKGRFTISRDNAKNSLYLQMNSLRAEDTALYYCAKGGYYDMLTGAGYYYYYMDVWGQGTTVTVSS chain 2: QSALTQPASVSGSPGQSITISCTGTSSDVGGYNYVSWYQQHPGKAPKLMIYDVNNRPSGVSNRFSGSKSGNTASLTISGLQAEDEADYYCSSYASTHYVFGTGTKVTVL	0.00555	0.003	0.00575	0.0212	0.00736	0.0546	0.0116	0.00442	0.0289	0.0291	> 10

— the supplement of paper PMC9931576
